Results of unrelated studies side by side (data: NIAID ChemDB).

Common to all: growth or infection tests; agent: Cryptococcus neoformans; measure: MIC

An empty or dashed field is not shown.

{"compound": "CC[C@@]1(O)C[C@H](O[C@H]2C[C@H](N(C)C)[C@H](O[C@H]3C[C@H](O)[C@H](O[C@H]4CCC(=O)[C@H](C)O4)[C@H](C)O3)[C@H](C)O2)c2c(cc3c(c2O)C(=O)c2c(O)cccc2C3=O)[C@H]1C(=O)OC", "strain": "G-3", "value": "1 µg/mL"}
{"compound": "CCC(C)CC(C)CCCCCCCCC(=O)N[C@H]1C[C@@H](O)[C@H](NCCN)NC(=O)[C@@H]2[C@@H](O)CCN2C(=O)[C@H]([C@H](O)CCN)NC(=O)[C@H]([C@H](O)[C@@H](O)c2ccc(O)cc2)NC(=O)[C@@H]2C[C@@H](O)CN2C(=O)[C@H]([C@@H](C)O)NC1=O", "strain": "B 36535", "method": "broth dilution", "value": "8 µg/mL"}
{"compound": "COc1ccc(-c2c(C#N)c(OC)nc3c2CSc2ccccc2-3)cc1", "strain": "93/V", "value": "25 µg/mL"}
{"compound": "CC(C)C(=O)CCC[C@@H]1CO[C@@](Cn2cncn2)(c2ccc(F)cc2F)C1", "strain": "A.34144", "value": "6.25 µg/mL"}
{"compound": "N#CC1=C(N)OC2=C(CSc3ccccc32)C1c1ccc(-c2ccccc2)cc1", "strain": "Farwania", "value": "50 µg/mL"}
{"compound": "OC(Cn1cncn1)(Cn1cncn1)c1ccc(F)cc1F", "strain": "TIMM0362", "value": "25 µg/mL"}
{"compound": "COc1nc2c(c(-c3ccc(C)cc3)c1C#N)CSc1ccccc1-2", "strain": "93/V", "value": "12.5 µg/mL"}
{"compound": "COc1cccc2c1C(=O)c1c(O)c3c(c(O)c1C2=O)C[C@@](O)(C(C)=O)C[C@@H]3O[C@H]1C[C@H](N)[C@H](O)[C@H](C)O1", "strain": "Clinical isolate (capsule-negative)", "value": ">100 µM"}
{"compound": "C[C@@H](n1ccn(-c2ccc(OCC(F)(F)C(F)F)cc2)c1=O)C(O)(Cn1cncn1)c1ccc(F)cc1F", "strain": "TIMM1855", "value": "0.13 µg/mL"}
{"compound": "O=C1/C(=C/c2ccccc2)CSc2ccc(Cl)cc21", "strain": "Farwania", "value": "6 µg/mL"}
{"compound": "CC(C)C(=O)CCC[C@@H]1CO[C@@](Cn2cccc2)(c2ccc(F)cc2F)C1", "strain": "A.34144", "value": ">100 µg/mL"}
{"compound": "C[C@@H](c1ncncc1F)[C@](O)(Cn1cncn1)c1ccc(F)cc1F", "strain": "ATCC 24067", "value": "0.015 µg/mL"}
{"compound": "C[C@@H](N1CCN(c2ccc(OC(F)(F)C(F)F)cc2)C1=O)C(O)(Cn1cncn1)c1ccc(F)cc1F", "strain": "TIMM1855", "value": "0.016 µg/mL"}
{"compound": "N#CC1=C(N)OC2=C(CSc3ccccc32)C1c1cccc2ccccc12", "strain": "25", "value": "12.5 µg/mL"}
{"compound": "CCCCCCCCOc1ccc(C(=O)NC2C[C@@H](O)[C@@H](O)NC(=O)C3[C@@H](O)[C@@H](C)CN3C(=O)C(C(C)O)NC(=O)C([C@H](O)[C@@H](O)c3ccc(O)cc3)NC(=O)C3C[C@@H](O)CN3C(=O)C(C(C)O)NC2=O)cc1", "strain": "MY1051", "value": ">128 µg/mL"}
{"compound": "NC(=O)C1=C(O)OC2=C(CSc3ccccc32)C1c1ccccc1", "strain": "25", "value": "12.5 µg/mL"}
{"compound": "COC(=O)[C@H]1[C@@H]2C[C@@H](O[C@@H]3O[C@H](C)[C@@H](O)[C@H](N)[C@@H]3O)/C=C/C=C/C=C/C=C/C=C/C=C/C=C/[C@H](C)[C@@H](O)[C@H](C)[C@H](C)OC(=O)C[C@H](O)C[C@H](O)[C@@H](O)CC[C@H](O)C[C@H](O)C[C@](O)(C[C@@H]1O)O2", "strain": "Clinical isolate (capsule-negative)", "value": "10.1 µM"}
{"compound": "CCCCCOc1ccc(-c2cc(-c3ccc(C(=O)N[C@H]4C[C@@H](O)[C@@H](O)NC(=O)[C@@H]5[C@@H](O)[C@@H](C)CN5C(=O)[C@H]([C@H](O)CC(N)=O)NC(=O)[C@H]([C@H](O)[C@@H](O)c5ccc(O)c(OS(=O)(=O)O)c5)NC(=O)[C@@H]5C[C@@H](O)CN5C(=O)[C@H]([C@@H](C)O)NC4=O)cc3)no2)cc1", "strain": "FMR 8400", "value": "64 µg/mL"}
{"compound": "CC(C)=CCCCCCNC1NCCC2c3ccccc3CCN12", "strain": "NFI3102", "value": "4 µg/mL"}
{"compound": "C[C@@H](n1ccn(-c2ccc(OC(F)(F)C(F)F)cc2)c1=O)C(O)(Cn1cncn1)c1ccccc1F", "strain": "TIMM1740", "value": "0.06 µg/mL"}
{"compound": "COc1ccc(C2C(C#N)=C(N)OC3=C2CSc2ccccc23)cc1", "strain": "25", "value": "12.5 µg/mL"}
{"compound": "O=C1/C(=C/c2ccc3c(c2)OCO3)CSc2ccccc21", "strain": "93/V", "value": "6 µg/mL"}
{"compound": "CC(C)C(=O)CCC[C@@H]1CO[C@@](Cn2ccnc2)(c2ccc(F)cc2F)C1", "strain": "B42419", "value": "0.78 µg/mL"}
{"compound": "CCOc1ccc(/C=C2\\CCc3ccccc3C2=O)cc1", "strain": "25", "value": "12.5 µg/mL"}
{"compound": "CC(C)C(=O)CCC[C@H]1CO[C@@](Cn2cccc2)(c2ccc(F)cc2F)C1", "strain": "A.34144", "value": ">100 µg/mL"}
{"compound": "N#CC1=C(N)OC2=C(CSc3ccccc32)C1c1ccc2c(c1)OCO2", "strain": "93/V", "value": "50 µg/mL"}
{"compound": "C[C@@H](N1CCN(c2ccc(OCC(F)(F)C(F)F)cc2)C1=O)C(O)(Cn1cncn1)c1ccc(F)cc1F", "strain": "TIMM1740", "value": "0.016 µg/mL"}
{"compound": "CC[C@@]1(O)C(=O)OCc2c1cc1n(c2=O)Cc2cc3c(CN(C)C)c(O)ccc3nc2-1", "strain": "NCPF 3379", "value": ">100 µM"}
{"compound": "C[C@@H](N1CCN(c2ccc(C(F)(F)F)cc2)C1=O)C(O)(Cn1cncn1)c1ccc(F)cc1F", "strain": "TIMM1855", "value": "0.03 µg/mL"}
{"compound": "COc1ccc2c(c1)C(=O)/C(=C/c1ccccc1OC)CO2", "strain": "25", "value": "3 µg/mL"}
{"compound": "COc1ccc2c(c1)CCN1C(NCCCCCC=C(C)C)NCCC21", "strain": "NFI3102", "value": "32 µg/mL"}
{"compound": "COc1ccc(-c2c(C#N)c(OC)nc3c2CSc2ccccc2-3)cc1OC", "strain": "Farwania", "value": "3 µg/mL"}
{"compound": "CCCC(O)C/C=C\\C=C\\C(=O)OC[C@H]1O[C@@H](O[C@@H]2[C@H](OC(=O)/C=C/C=C/CC(O)/C(C)=C/C=C/CCC(C)CC)[C@@H](O)[C@]3(OCc4cc(O)cc(O)c43)O[C@@H]2CO)[C@H](O)[C@@H](O)[C@H]1O", "strain": "MY1051", "value": ">128 µg/mL"}
{"compound": "COc1nc2c(c(-c3ccc4ccccc4c3)c1C#N)CSc1ccc(Cl)cc1-2", "strain": "25", "value": "25 µg/mL"}
{"compound": "C=C(CCCCCNC1NCCC2c3ccccc3CCN12)C(C)C", "strain": "NFI3102", "value": "4 µg/mL"}
{"compound": "C[C@@H](n1ccn(-c2ccc(OCC(F)(F)C(F)F)cc2)c1=O)C(O)(Cn1cncn1)c1ccccc1F", "strain": "TIMM1740", "value": "0.06 µg/mL"}
{"compound": "CC(C)CCCCCCNC1NCCC2c3ccccc3CCN12", "strain": "NFI3102", "value": "2 µg/mL"}
{"compound": "CC(C)C(=N)CCC[C@H]1CO[C@@](Cn2cccc2)(c2ccc(F)cc2F)C1", "strain": "B42419", "value": "25 µg/mL"}

The last 5 rows once more:

compound	strain	method	value
COc1nc2c(c(-c3ccc4ccccc4c3)c1C#N)CSc1ccc(Cl)cc1-2	25		25 µg/mL
C=C(CCCCCNC1NCCC2c3ccccc3CCN12)C(C)C	NFI3102		4 µg/mL
C[C@@H](n1ccn(-c2ccc(OCC(F)(F)C(F)F)cc2)c1=O)C(O)(Cn1cncn1)c1ccccc1F	TIMM1740		0.06 µg/mL
CC(C)CCCCCCNC1NCCC2c3ccccc3CCN12	NFI3102		2 µg/mL
CC(C)C(=N)CCC[C@H]1CO[C@@](Cn2cccc2)(c2ccc(F)cc2F)C1	B42419		25 µg/mL

Neighbouring rows are from separate reports.